Laboratory results: PubChem BioAssay AID624099 (ICCB-Longwood, 2012)

Assay: 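Host factors E2 relies on to silence an HPV18 LCR reporter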 (primary screen)
Cell system: human C33A cervical carcinoma cells (HPV-negative) stably expressing BPV1 E2 and an HPV18 LCR luciferase reporter
Reagent: siRNA pool against human genes, 40 nM
Duration: 72 h
Measurement: 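HPV18 LCR reporter light per well, converted to plate-wise z-scores that exclude control wells, and averaged over triplicate plates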
Reading the numbers: mean z-score and z-score: higher = stronger reporter signal, weaker E2 silencing
Hit rule: 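Mean z ≥ 2 together with z ≥ 2 in two or more of the three replicates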
This is an unselected part of about 21,000 reagents tested. Of all reagents, 497 (2.4%) got an active call. 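Higher z means weaker E2 silencing; only reporter increases were scored, and knock-downs that hurt cell survival may mask genuine repressor factors.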 Unmarked entries are inactive.

After knock-down of EFHB (EF-hand domain family member B), the record shows mean z-score 0.53; z-score, replicate A = 0.5; z-score, replicate B = 0.84; z-score, replicate C = 0.24.
With knock-down of ORC3 (origin recognition complex subunit 3), the screen gave mean z-score 1.15; z-score, replicate A = 0.76; z-score, replicate B = 1.35; z-score, replicate C = 1.34.
Against EGLN3 (egl-9 family hypoxia inducible factor 3), the values are mean z-score 0.27; z-score, replicate A = 0.02; z-score, replicate B = 0.3; z-score, replicate C = 0.51.
For DACH2 (dachshund family transcription factor 2) the deposit lists mean z-score 1.87; z-score, replicate A = 1.55; z-score, replicate B = 2.13; z-score, replicate C = 1.95.
Silencing of GTSF1 (gametocyte specific factor 1) gave: mean z-score -0.3; z-score, replicate A = 0.02; z-score, replicate B = -0.45; z-score, replicate C = -0.47.
With knock-down of LOC439911 (retired record), the screen gave mean z-score -0.31; z-score, replicate B = -0.37; z-score, replicate C = -0.25.
After knock-down of NLK (nemo like kinase), the screen gave mean z-score 1.6; z-score, replicate A = 0.97; z-score, replicate B = 2.02; z-score, replicate C = 1.82.

Reprinted from the entries so far for reference:
EGLN3 (egl-9 family hypoxia inducible factor 3) — mean z-score: 0.27; z-score, replicate A: 0.02; z-score, replicate B: 0.3; z-score, replicate C: 0.51
DACH2 (dachshund family transcription factor 2) — mean z-score: 1.87; z-score, replicate A: 1.55; z-score, replicate B: 2.13; z-score, replicate C: 1.95

The listing continues:
With knock-down of ZNF621 (zinc finger protein 621), the record shows mean z-score 1.86; z-score, replicate A = 2.07; z-score, replicate B = 1.92; z-score, replicate C = 1.6.
Silencing of LINC00323 (long independently transcribed non-coding RNA 323) gave: mean z-score 2.16 (active); z-score, replicate A = 2.27; z-score, replicate B = 2.14; z-score, replicate C = 2.08.
CCL13 (C-C motif chemokine ligand 13) showed mean z-score -0.24; z-score, replicate A = -0.38; z-score, replicate B = -0.35; z-score, replicate C = 0.
LAMP3 (lysosome associated membrane protein 3) gave mean z-score -1.2; z-score, replicate A = -1.22; z-score, replicate B = -1.18; z-score, replicate C = -1.2.
Against LRRC14 (leucine rich repeat containing 14), the values are mean z-score 0.4; z-score, replicate A = 0.62; z-score, replicate B = 0.4; z-score, replicate C = 0.17.
STX10 (syntaxin 10) showed mean z-score -0.23; z-score, replicate A = -0.12; z-score, replicate B = -0.33; z-score, replicate C = -0.24.
With knock-down of MOB2 (MOB kinase activator 2), the record shows mean z-score -0.04; z-score, replicate A = 0.39; z-score, replicate B = -0.23; z-score, replicate C = -0.28.
With knock-down of BLOC1S4 (biogenesis of lysosomal organelles complex 1 subunit 4) the results were mean z-score 3.68 (active); z-score, replicate A = 3.79; z-score, replicate B = 3.58.
Silencing of PARP3 (poly(ADP-ribose) polymerase family member 3) gave: mean z-score 0.79; z-score, replicate A = 0.63; z-score, replicate B = 0.76; z-score, replicate C = 0.99.
After knock-down of TRIM22 (tripartite motif containing 22), the record shows mean z-score 1.11; z-score, replicate A = 0.94; z-score, replicate B = 1.05; z-score, replicate C = 1.33.
KLF8 (KLF transcription factor 8) gave mean z-score -0.27; z-score, replicate A = -0.36; z-score, replicate B = -0.2; z-score, replicate C = -0.25.
Knock-down of RPS7P4 (ribosomal protein S7 pseudogene 4) gave: mean z-score -2.17; z-score, replicate A = -2.27; z-score, replicate B = -2.31; z-score, replicate C = -1.93.
SCGB3A2 (secretoglobin family 3A member 2) showed mean z-score -0.89; z-score, replicate A = -0.79; z-score, replicate B = -0.93; z-score, replicate C = -0.94.
Depletion of SPTAN1 (spectrin alpha, non-erythrocytic 1) resulted in: mean z-score 0.06; z-score, replicate A = 0.36; z-score, replicate B = -0.02; z-score, replicate C = -0.15.
